Measured values from several laboratories, pooled; numbers as filed in NIAID ChemDB.

Common to all: host cell toxicity; cells: HEL; read-out: CC50

CCn is the concentration with n% toxicity to the cells.

structure	value
C[C@H](NC(=O)N1C(=O)C[C@@]1(Cc1ccccc1)C(=O)OC(C)(C)C)c1ccccc1	184 µM
O=C(C1CC1)N(O)c1ccc(Cl)cc1	37 µg/mL
CC(C)CS[C@H]1C[C@@H](n2cnc3c(N)ncnc32)[C@H](O)[C@@H]1O	>200 µg/mL
CC(C)(C)NC(=O)C1(Cc2ccccc2)CCN1C(=O)OCc1ccccc1	36 µM
O=c1[nH]c(=O)n([C@H]2C[C@H](O)[C@@H](CO)O2)cc1-c1cc(-c2ccccc2)no1	>200 µg/mL
CCCC#Cc1nc2c(N)ncnc2n1[C@H]1C[C@H](O)[C@@H](CO)O1	10 µg/mL
CCCCCOCCCCCCCCCc1cc2cn([C@H]3C[C@H](O)[C@@H](CO)O3)c(=O)nc2o1	>200 µM
N#C/C(=C/c1ccccc1)Sc1cccc[n+]1[O-]	8.7 µg/mL
O=C(COc1cccc2ccccc12)NN=Cc1ccc(Br)cc1	100 µg/mL
Nc1ccn(C[C@@H](CO)OCP(=O)(O)O)c(=O)n1	80 µg/mL
O=C(COc1cccc2ccccc12)NN=Cc1cccc([N+](=O)[O-])c1	61.2 µg/mL
Cc1ccc(CS(=O)c2cccc[n+]2[O-])cc1	11 µg/mL
O=c1[nH]c(=O)n([C@H]2C[C@H](O)[C@@H](CO)O2)cc1C#CCCCCCCCCCBr	97 µM
NC(=O)c1c(Cl)c(-c2cccnc2)n2c1CCCC2	101 µM
O=S(=O)(c1ccc(Cl)c[n+]1[O-])C(Cl)c1ccccc1	2.3 µg/mL
O=C(OCCOCN1c2ccccc2C(=O)N(Cc2ccccc2)S1(=O)=O)c1ccccc1	17 µg/mL
COc1cc(C=NNC(=O)COc2cccc3ccccc23)cc(OC)c1OC	47.9 µg/mL
C=CCCCCCCc1cc2cn([C@H]3C[C@H](O)[C@@H](CO)O3)c(=O)nc2o1	>200 µM
O=C1c2ccccc2NS(=O)(=O)N1Cc1ccccc1	>50 µg/mL
Cc1ccc(-c2cc3cn([C@H]4C[C@H](O)[C@@H](CO)O4)c(=O)nc3o2)cc1	>200 µM
Cc1c(Br)cc(Br)c2ncc(CSCc3ccc(Cl)c(Cl)c3)n12	>50 µg/mL
OCCOCc1c(-c2ccccc2)nc2ccccn12	130 µg/mL
CCCCCCCCCCc1cc2cn([C@H]3C[C@H](O)[C@@H](CO)O3)c(=O)nc2o1	>50 µM
O=C1c2ccccc2C(=O)N1CCCC12CC3CC(CC(C3)C1)C2	30 µg/mL
Nc1nc2c(ncn2CCC(CO)CO)c(=O)[nH]1	290 µg/mL
Nc1ncnc2c1ncn2[C@H]1C[C@@H](O)[C@H](O)[C@@H]1O	50 µg/mL
C=CCCCc1cc2cn([C@H]3C[C@H](O)[C@@H](CO)O3)c(=O)nc2o1	>200 µM
Cc1c(Br)cc(Br)c2ncc(CSCCCc3ccccc3)n12	>50 µg/mL
O=c1[nH]c(=O)n([C@H]2C[C@H](O)[C@@H](CO)O2)cc1/C=C/Cl	>692 µM
COCC1=C[C@@H](n2cnc3c(N)ncnc32)[C@H](O)[C@@H]1O	200 µg/mL
CCCCCCCOCCc1cc2cn([C@H]3C[C@H](O)[C@@H](CO)O3)c(=O)nc2o1	>200 µM
C#CCCCc1cc2cn([C@H]3C[C@H](O)[C@@H](CO)O3)c(=O)nc2o1	>200 µM
NC1=NS(=O)(=O)N(Cc2ccccc2)c2nc(-c3ccc(Cl)cc3)[nH]c21	30 µg/mL
C/C=C\c1nc2c(N)ncnc2n1[C@H]1C[C@H](O)[C@@H](CO)O1	>50 µg/mL
Nc1nc2c(ncn2COC(CO)CO)c(=O)[nH]1	>196 µM
N#C/C=C/[C@H]1O[C@@H](n2cnc3c(N)ncnc32)[C@H](O)[C@@H]1O	11 µg/mL
CC(=O)OCCOCN1c2nc(Cc3ccccc3)[nH]c2C(N)=NS1(=O)=O	>50 µg/mL
Cc1ccn2c(C3OCCO3)cnc2c1	>290 µM
CCCCCCCCCCCC(Sc1cccc[n+]1[O-])c1cc(C)ccc1C	>20 µg/mL
O=C(CC1CCCCC1)N(O)c1ccccc1	>500 µg/mL
O=C(COc1cccc2ccccc12)NN=Cc1c[nH]c2ccccc12	>100 µg/mL
O=c1[nH]c(=O)n([C@H]2C[C@H](O)[C@@H](CO)O2)cc1C(F)(F)F	0.007 µg/mL
Cc1ccn2c(C3SCCS3)cnc2c1	>245 µM
Cc1ccccc1CSCc1cnc2c(Br)cc(Br)c(C)n12	>50 µg/mL
O=[N+]([O-])c1ccccc1CS(=O)(=O)c1cccc[n+]1[O-]	13 µg/mL
CCCCCCCCCCc1cc2cn([C@H]3C[C@H](O)[C@@H](CO)O3)c(=O)nc2o1	>50 µM
COC(=O)C(C)(C)NP(=O)(OC[C@H]1O[C@@H](n2cc(/C=C/Br)c(=O)[nH]c2=O)C[C@@H]1O)Oc1ccccc1	>200 µM
O=c1nc2oc(CCCCCCCCCI)cc2cn1[C@H]1C[C@H](O)[C@@H](CO)O1	>200 µM
Cc1cccn2c(C3SCCS3)cnc12	122 µM
COc1ccc(CS(=O)(=O)c2cccc[n+]2[O-])cc1	31 µg/mL
CCCCCCCCCc1cc2cn([C@H]3C[C@H](O)[C@@H](CO)O3)c(=O)nc2o1	>200 µM
CCOC(Cn1c(N)nc2c(ncn2COC(CO)CO)c1=O)OCC	>90 µg/mL
Cc1ccc(C)c(C(C)(Cl)S(=O)(=O)c2cccc[n+]2[O-])c1	>20 µg/mL
O=C[C@H]1C[C@H](n2ccc(=O)[nH]c2=O)O[C@@H]1CO	0.1 µg/mL
Nc1ncc2ncn(C[C@H]3CCC[C@H]3CO)c2n1	20 µg/mL
CCOC(Cn1c(N)nc2c(ncn2COCCO)c1=O)OCC	>90 µg/mL
Cc1ccc(C)c(C(CC(C)C)S(=O)(=O)c2cccc[n+]2[O-])c1	1.2 µg/mL
Nc1ccn([C@@H]2CO[C@H](CO)[C@@H](O)C2)c(=O)n1	2 µg/mL
OCCSCc1c(-c2ccccc2)nc2ccccn12	80 µg/mL
CCCCCCCCCCc1cc2cn([C@H]3C[C@H](O)[C@@H](CO)O3)c(=O)nc2n1C	179 µM
Nc1nc(N)c2ncn([C@H]3CCC[C@H]3CO)c2n1	>50 µg/mL
Nc1ncnc2c1nnn2[C@@H]1C=C(CO)[C@@H](O)[C@H]1O	>50 µg/mL
Nc1nc2c(ncn2COC(CO)CO)c(=O)[nH]1	85 µg/mL
Cc1ccc(C)c(C(CC(=O)O)S(=O)(=O)c2cccc[n+]2[O-])c1	>50 µg/mL
CCCCCCCCCCCCc1cc2cn([C@H]3C[C@H](O)[C@@H](CO)O3)c(=O)nc2[nH]1	>200 µM
O=c1[nH]c(=O)n([C@H]2C[C@H](O)[C@@H](CO)O2)cc1/C=C/Br	>200 µM
O=c1[nH]c(=O)n([C@H]2C[C@H](O)[C@@H](CO)O2)cc1/C=C/Br	>200 µM
CCCCCCCc1nc2c(N)ncnc2n1[C@H]1C[C@H](O)[C@@H](CO)O1	13 µg/mL
CCCCCCc1cc2cn([C@H]3C[C@H](O)[C@@H](CO)O3)c(=O)nc2o1	>200 µM
Cc1cccc(CS(=O)c2cccc[n+]2[O-])c1	37 µg/mL
CCCCCCOc1ccc(-c2cc3cn([C@H]4C[C@H](O)[C@@H](CO)O4)c(=O)nc3o2)cc1	>200 µM
CC(C)c1ccc(C(C)C)c(CS(=O)c2cccc[n+]2[O-])c1	11 µg/mL
CC#Cc1cn([C@@H]2O[C@H](CO)[C@@H](O)[C@@H]2O)c(=O)[nH]c1=O	709 µM
Cc1c(Br)cc(Br)c2ncc(CSCc3cccc(C(F)(F)F)c3)n12	>50 µg/mL
CCCCCCCCOc1ccc(/C=C(/C#N)Sc2cccc[n+]2[O-])cc1	35 µg/mL
C[C@H](NC(=O)N1C(=O)C[C@@]1(Cc1ccccc1)C(=O)O)c1ccccc1	187 µM
O=c1[nH]c(=O)n([C@H]2C[C@H](O)[C@@H](CO)O2)cc1/C=C/Br	>200 µg/mL
O=C1NS(=O)(=O)N(COCc2ccccc2)c2ccccc21	>50 µg/mL
Cc1ccc[n+]([O-])c1S(=O)(=O)Cc1cccc([N+](=O)[O-])c1C	9.6 µg/mL
CCCCCCc1cc2cn([C@H]3C[C@H](O)[C@@H](CO)O3)c(=O)nc2o1	>200 µM
O=c1[nH]c(=O)n([C@@H]2O[C@H](CO)[C@@H](O)[C@@H]2O)cc1/C=C/Br	>573 µM
C/C(=C\CC/C(C)=C/Cc1cc(O)cc(C)c1O)CC/C=C(\C)CC[C@@H](C)C(C)(C)O	7.7 µM
Nc1nc2c(ncn2COC(CO)CO)c(=O)[nH]1	461 µM
Nc1nc2c(ncn2C[C@H]2CCC[C@H]2CO)c(=O)[nH]1	>50 µg/mL
O=S(=O)(Cc1ccc(Cl)c(Cl)c1)c1cccc[n+]1[O-]	2.9 µg/mL
Cc1ccc(/C=N/NC(=O)COc2cccc3ccccc23)cc1	80.1 µg/mL
COCC(c1cc(C)ccc1C)S(=O)(=O)c1ccccn1	≥100 µg/mL
O=c1[nH]c(=O)n([C@H]2C[C@H](O)[C@@H](CO)O2)cc1/C=C/Br	>600 µM
O=c1[nH]c(=O)n([C@H]2C[C@H](O)[C@@H](CO)O2)cc1/C=C/Br	>400 µM
O=C(COc1cccc2ccccc12)NN=CCc1ccccc1	100 µg/mL
CCCCCCCCCCc1cc2cn([C@H]3C[C@H](O)[C@@H](CO)O3)c(=O)nc2o1	>50 µM
CCCCCCCCCCc1cc2cn([C@H]3C[C@H](O)[C@@H](CO)O3)c(=O)nc2n1CC	34 µM
CCCCCCCCCc1cc2cn([C@H]3C[C@H](O)[C@@H](CO)O3)c(=O)nc2o1	>200 µM
Cc1c(Br)cc(Br)c2ncc(CSCc3ccc(Cl)cc3)n12	>50 µg/mL
CCCCCCCCc1ccc(-c2cc3cn([C@H]4C[C@H](O)[C@@H](CO)O4)c(=O)nc3o2)cc1	>200 µM
Cc1ccc(C)c(C(C)S(=O)(=O)c2ccccn2)c1	3.1 µg/mL
O=c1c2ncn(COC(CO)CO)c2nc2[nH]c(-c3ccccc3)cn12	>200 µg/mL
COC(=O)C(c1cc(C)ccc1C)S(=O)(=O)c1cccc[n+]1[O-]	27 µg/mL
CCCOc1ccc(-c2cc3cn([C@H]4C[C@H](O)[C@@H](CO)O4)c(=O)nc3o2)cc1	>200 µM
Nc1ncnc2c1ncn2[C@@H]1C=C(CO)[C@@H](O)[C@H]1O	16 µg/mL
Cc1cn2c(=O)c3ncn(COCCO)c3nc2[nH]1	>90 µg/mL
Cc1ccc(C)c(CS(=O)c2ncccc2O)c1	>20 µg/mL
Nc1nc2c(ncn2COC(CO)CO)c(=O)[nH]1	90 µg/mL
CCCCCCCCc1cc2cn([C@H]3C[C@H](O)[C@@H](CO)O3)c(=O)nc2o1	>50 µM
Cc1cn([C@@H]2CO[C@H](CO)[C@@H](O)C2)c(=O)[nH]c1=O	>50 µg/mL
Cc1c(Br)cc(Br)c2ncc(CSC(C)c3cccs3)n12	>50 µg/mL
NC1=NC2C(C=CN2CC(CO)CCO)C(=O)N1	790 µM
O=S(=O)(Cc1ccc(Cl)cc1Cl)c1cccc[n+]1[O-]	6.2 µg/mL
CCCCOCCCCCCCCCc1cc2cn([C@H]3C[C@H](O)[C@@H](CO)O3)c(=O)nc2o1	>200 µM

Repeating the first 11 entries:

structure,value
C[C@H](NC(=O)N1C(=O)C[C@@]1(Cc1ccccc1)C(=O)OC(C)(C)C)c1ccccc1,184 µM
O=C(C1CC1)N(O)c1ccc(Cl)cc1,37 µg/mL
CC(C)CS[C@H]1C[C@@H](n2cnc3c(N)ncnc32)[C@H](O)[C@@H]1O,>200 µg/mL
CC(C)(C)NC(=O)C1(Cc2ccccc2)CCN1C(=O)OCc1ccccc1,36 µM
O=c1[nH]c(=O)n([C@H]2C[C@H](O)[C@@H](CO)O2)cc1-c1cc(-c2ccccc2)no1,>200 µg/mL
CCCC#Cc1nc2c(N)ncnc2n1[C@H]1C[C@H](O)[C@@H](CO)O1,10 µg/mL
CCCCCOCCCCCCCCCc1cc2cn([C@H]3C[C@H](O)[C@@H](CO)O3)c(=O)nc2o1,>200 µM
N#C/C(=C/c1ccccc1)Sc1cccc[n+]1[O-],8.7 µg/mL
O=C(COc1cccc2ccccc12)NN=Cc1ccc(Br)cc1,100 µg/mL
Nc1ccn(C[C@@H](CO)OCP(=O)(O)O)c(=O)n1,80 µg/mL
O=C(COc1cccc2ccccc12)NN=Cc1cccc([N+](=O)[O-])c1,61.2 µg/mL

Neighbouring rows are from separate reports.